## Sequence variants of PSTVd loop 6 after infection

The pool varies loop 6 of the PSTVd intermediate strain in the pattern UNNNCGNNNG; wild type is UGACCGCGAG (upper and lower strand joined, each 5' to 3', the first 5 letters being the upper strand, closing pairs included).

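Three N. benthamiana plants were inoculated with the whole mutant pool. Progeny were sequenced from the inoculated region (day 5), the margin of the inoculated leaf (day 10) and systemic leaves (day 12).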

Numbers give reads per thousand; 0 = not seen among the reads, higher = more abundant.
Each value is the mean of three plants.
"Pool" is the share in the plasmid pool used as inoculum, on the same scale.
The inoculated region was read from the minus strand, the other sites from the plus strand.
IR is the inoculated region, LM the leaf margin, Sys the systemic leaves.
With 36,220-57,551 reads a sample, very low values are single reads.

UGUACGGGGG (pool 0.0784) gave IR 0.0902; LM 0; Sys 0.
UAACCGUUUG (pool 0.314) gave IR 0.0899; LM 0.0324; Sys 0.
UCGACGAGUG (pool 0.196) gave IR 0.0951; LM 0.00920; Sys 0.
UACACGCUAG (pool 0.105) gave IR 0.603; LM 0.0783; Sys 0.0264.
UAAUCGAACG (pool 0.366) gave IR 0.531; LM 0.0445; Sys 0.0196.
UUCCCGCAGG (pool 0.157) gave IR 0.102; LM 0; Sys 0.
UCACCGCGAG (pool 0.105) gave IR 17.1; LM 34.7; Sys 11.1.
UGAGCGUAUG (pool 0.458) gave IR 0.108; LM 0.166; Sys 0.00673.
UAAACGCCCG (pool 0.157) gave IR 0.661; LM 0.0960; Sys 0.
UCAGCGAUGG (pool 0.196) gave IR 0.0655; LM 0; Sys 0.
UCCACGCGCG (pool 0.170) gave IR 0.0720; LM 0; Sys 0.
UUAACGUACG (pool 0.170) gave IR 0.660; LM 0.0935; Sys 0.0331.
UCCCCGGCCG (pool 0.288) gave IR 0.0833; LM 0; Sys 0.
UACACGACCG (pool 0.170) gave IR 0.0536; LM 0; Sys 0.
UCAGCGGAUG (pool 0.170) gave IR 0.0543; LM 0.0169; Sys 0.
UUCUCGAGUG (pool 0.261) gave IR 0.125; LM 0.00773; Sys 0.
UAGUCGGCUG (pool 0.196) gave IR 0.0480; LM 0; Sys 0.
UUAGCGAUCG (pool 0.327) gave IR 0.0715; LM 0.00920; Sys 0.
UGGACGCGGG (pool 0.275) gave IR 0.0710; LM 0.0247; Sys 0.
UGACCGCACG (pool 0.235) gave IR 0.188; LM 0.149; Sys 0.0658.
UAUCCGGUCG (pool 0.275) gave IR 0.102; LM 0; Sys 0.
UAUCCGUUUG (pool 0.445) gave IR 0.144; LM 0; Sys 0.

Excerpt, the final 3 entries:

sequence,pool,IR,LM,Sys
UGACCGCACG,0.235,0.188,0.149,0.0658
UAUCCGGUCG,0.275,0.102,0,0
UAUCCGUUUG,0.445,0.144,0,0

Wild type was 20.7 per thousand in the pool and the most common sequence in every sample (inoculated region 195, 198, 203; leaf margin 629, 591, 734; systemic leaves 942, 870, 868).
The authors trace changes outside the varied positions to PCR and sequencing errors or to mutation in the plant; presence does not show that a variant is infectious alone.

Values reported by Wu et al. 2024 (doi:10.1371/journal.ppat.1012142).